{"source": "paper PMC6985722", "about": "(Antimicrobial Agents and Chemotherapy, 2020)", "origin": "cited, not measured here", "system": "RSV", "conditions": "virus challenge study, 17 treated subjects; cited from earlier work"}
{"smiles": "CC(C)C(=O)OC[C@@]1(CCl)O[C@@H](n2ccc(N)nc2=O)[C@H](F)[C@@H]1OC(=O)C(C)C", "note": "[ALS-008176]", "values": [{"measurement": "Mutations associated with in vitro resistance", "result": "no mutations known to be associated with in vitro resistance to ALS-008176 were detected"}]}
